Compound potency records, mixed from different reports. Data source: NIAID ChemDB in PubChem.

Shared fields: growth or infection tests; species: HIV-1

Blank or dashed fields: not listed here.

SMILES,strain,cell line,measure,method,changes,setting,result
CCN1c2ncc(CCOc3ccc(NS(C)(=O)=O)c4ccccc34)cc2C(=O)N(C)c2ccc(F)nc21,WT,C8166,EC50,p24,,,<0.1 µM
C=C(C)[C@@H]1CC[C@]2(C(=O)N[C@H](CC(C)C)C(=O)O)CC[C@]3(C)[C@H](CC[C@@H]4[C@@]5(C)CC[C@H](OC(=O)C(C)(C)CC(=O)O)C(C)(C)[C@@H]5CC[C@]43C)[C@@H]12,NL4-3,MT-4,EC50,p24,,,0.01 µM
O=C(NCc1cccnc1)C(=O)N/N=C\c1ccc(-c2cccc(Cl)c2)o1,IIIB,MT-2,EC50,p24,,,<10 µM
CCNC(=O)OCCOCn1c(Sc2cccc(C)c2)c(C)c(=O)[nH]c1=O,,MT-4,EC50,,,,0.96 µM
CC(=O)c1ccc(S(=O)(=O)N2CCC(Nc3nc(Oc4c(C)cc(C#N)cc4C)c4sccc4n3)CC2)cc1,IIIB,MT-4,EC50,MTT,,,0.33 µM
C#C[C@]1(CO)O[C@@H](n2cnc3c(NC(=O)OCC)nc(F)nc32)C[C@@H]1O,NL4-3,U373-CD4-CXCR4,EC50,luminescence,gp160 M184V,,6.29 µM
CC(=O)c1cc(-c2ccccc2)n(-c2cccc(N)c2)c1C,,MT-4,EC50,cytopathic effect / MTT,,,>22 µM
Nc1ncnc2c1ncn2[C@H]1C=C[C@@H](CO)C1,,MT-2,EC50,cytopathic effect / XTT,,,2.3 µg/mL
C=C1[C@H](n2ncc(N)nc2=O)O[C@H](CO)[C@H]1O,,MT-2,EC50,cytopathic effect / MTT,,,>100 µM
Cc1cc(C#N)cc(C)c1Oc1nc(Nc2ccc(NS(=O)(=O)c3ccc(C#N)cc3)cc2)nc2ccsc12,IIIB,MT-4,EC50,MTT,,,0.32 µM
CC[C@H](C)[C@H](NC(=O)OC(C)(C)C)C(=O)NNc1ccn([C@H]2CC[C@@H](CO)O2)c(=O)n1,,CEM + CEM-SS,EC50,,,,>100 µM
C#C[C@]1(COC(=O)OCCCCCCCCCCCC)O[C@@H](n2cnc3c(N)nc(F)nc32)C[C@@H]1O,NL4-3,U373-CD4-CXCR4,EC50,luminescence,gp160 M184V,,0.0109 µM
Cn1cc(C(=O)O)c(=O)c2cc(F)c(N3CC=C(c4ccccc4)CC3)c(C(F)(F)F)c21,,MOLT-4,EC50,cytopathic effect / MTT,,,0.02 µM
OC[C@@H]1C=C[C@H](n2cnc3c(Cl)ncnc32)C1,,MT-2,EC50,cytopathic effect / XTT,,,>10 µg/mL
CCc1c(Sc2ccccc2)n(COCc2ccc(C)cc2)c(=S)[nH]c1=O,,MT-4,EC50,,,,0.012 µM
C#C[C@]1(CO)O[C@@H](n2cnc3c(N)nc(F)nc32)C[C@@H]1OC(=O)OCC,NL4-3,U373-CD4-CXCR4,EC50,luminescence,gp160 M184V,,0.1852 µM
CC1=C[C@H](Cn2cnc3c(NC4CC4)ncnc32)C[C@@H]1CO,IIIB,MT-4,EC50,MTT,,,>100 µg/mL
CCOCn1c(Sc2cc(C)cc(C)c2)c(CC)c(=O)[nH]c1=O,,MT-4,EC50,,,,0.005 µM
CNc1ccc(C)cc1S(=O)(=O)c1ccccc1[N+](=O)[O-],,CEM,EC50,cytopathic effect / XTT,,,1.02 µM
C=C(C)[C@@H]1CC[C@]2(C(=O)NCCCCCCCC(=O)N[C@@H](CC(C)C)[C@H](O)CC(=O)O)CC[C@]3(C)[C@H](CC[C@@H]4[C@@]5(C)CC[C@H](O)C(C)(C)[C@@H]5CC[C@]43C)[C@@H]12,NL4-3,MT-4,EC50,p24,,,0.053 µM
O=C(O)c1cn(-c2ccc(Cn3cncn3)cc2)c2cc(N3CCN(c4ccc(F)cc4F)CC3)c(F)cc2c1=O,,PBL,EC50,syncytia,,,0.2 µM
CCCCCCCCCCCCCCCCCCOP(=O)(OCCCC)OP(=O)(O)OP(=O)(O)OP(=O)(O)OC[C@@H]1C=C[C@H](n2cc(C)c(=O)[nH]c2=O)O1,HE,CD4+ T-cell,EC50,syncytia / visual reading,,,0.07 µM
Cc1cc(C)cc(Nn2cnc(C)c2-c2ccccc2)c1,IIIB,MT-4,EC50,cytopathic effect / MTT,,,>20.44 µM
C#C[C@]1(CO)O[C@@H](n2cnc3c(N)nc(F)nc32)C[C@@H]1OC(=O)OCCCCCCCCCCCCCCCCCCCC,NL4-3,U373-CD4-CXCR4,EC50,luminescence,gp160 M184V,,>25 µM
C=C(C)[C@@H]1CC[C@]2(C(=O)NCCCCCCCC(=O)O)CC[C@]3(C)[C@H](CC[C@@H]4[C@@]5(C)CC[C@H](OC(=O)CC(C)(C)C(=O)O)C(C)(C)[C@@H]5CC[C@]43C)[C@@H]12,NL4-3,MT-4,EC50,p24,,,0.077 µM
C/C=C/C(=O)O[C@H]1CC[C@]23C[C@]24CC[C@]25CO[C@@]6(C(C)(C)O)CC[C@](C)(O6)C2[C@@H](OC(C)=O)[C@@H](OC(C)=O)[C@@]5(C)C4CC[C@H]3C1(C)C,NL4-3,MT-4,EC50,luciferase,,,<5 µM
C#C[C@]1(CO)O[C@@H](n2cnc3c(NC(=O)CCCCCCCCC)nc(F)nc32)C[C@@H]1O,NL4-3,U373-CD4-CXCR4,EC50,luminescence,gp160 M184V,,0.0061 µM
CC1CN(c2cc3c(cc2F)c(=O)c(C(=O)O)cn3-c2ccc(Cn3cncn3)cc2)CCN1c1ccccc1,,PBL,EC50,syncytia,,,0.08 µM
C#C[C@]1(COCOC(=O)OC(C)C)O[C@@H](n2cnc3c(N)nc(F)nc32)C[C@H]1O,NL4-3,U373-CD4-CXCR4,EC50,luminescence,gp160 M184V,,0.06 µM
CC1=C[C@H](Cn2cnc3c(N)ncnc32)C[C@@H]1CO,IIIB,MT-4,EC50,MTT,,,>100 µg/mL
CCCOP(=O)(OC[C@H]1O[C@@H](n2cc(C)c(=O)[nH]c2=O)C[C@@H]1N=[N+]=[N-])OC(C)C(=O)OC,RF,C8166,EC50,p24,,,10 µM
CCOCn1c(Sc2ccccc2)c(CC)c(=O)[nH]c1=O,,MT-4,EC50,,,,0.016 µM
COc1ccc(-c2cc(C(=O)Nc3ccc(S(=O)(=O)Nc4cc(C)nc(C)n4)cc3)c3ccccc3n2)cc1,IIIB,MT-2,EC50,p24,,,>10 µM
Cc1cc(C#N)cc(C)c1Oc1nc(NC2CCN(S(=O)(=O)c3ccc(N)cc3)CC2)nc2ccsc12,IIIB,MT-4,EC50,MTT,,,1.35 µM
CCCCCCOP(=O)(OCC(=O)OCC)OC[C@H]1O[C@@H](n2cc(C)c(=O)[nH]c2=O)C[C@@H]1OC(C)=O,RF,C8166,EC50,p24,,,>100 µM
C=CC(C)(C)c1c2c(c(O)c3ccc(=O)oc13)C(=O)CC(C)(C)O2,,1A2,EC50,syncytia,,,5.3 µM
Cc1c(-c2c(C3CC3)c3c(c(C4CC4)c2[C@H](OC(C)(C)C)C(=O)O)CN(C(=O)c2cccc(F)c2)C3)cc(F)c2c1CCCO2,,MT-4,EC50,luciferase,,,0.145 µM
C=C(C)[C@@H]1CC[C@]2(C(=O)NCCCCCCCC(=O)N[C@@H](CC(C)C)C(=O)O)CC[C@]3(C)[C@H](CC[C@@H]4[C@@]5(C)CC[C@H](OC(=O)CC(C)(C)C(=O)O)C(C)(C)[C@@H]5CC[C@]43C)[C@@H]12,NL4-3,MT-4,EC50,p24,,,0.087 µM
O=C(CCCCC(=O)Nc1sc2c(c1C(=O)O)CCCC2)Nc1sc2c(c1C(=O)O)CCCC2,IIIB,MT-2,EC50,p24,,,>10 µM
O=C(O)c1cn(-c2ccc(Cn3cncn3)cc2)c2c(OC(F)F)c(N3CC=C(c4ccccc4)CC3)c(F)cc2c1=O,BaL,PBMC,EC50,p24,,,~0.015 µM
Cc1cc(C#N)cc(C)c1Oc1nc(Nc2ccc(NS(=O)(=O)c3ccc4ccccc4c3)cc2)nc2ccsc12,IIIB,MT-4,EC50,MTT,,,1.17 µM
CCOC(=O)c1cc(-c2cccc(OC)c2)n(-c2cccc(N)c2)c1C,,MT-4,EC50,cytopathic effect / MTT,,,>7.2 µM
Cc1c(Sc2ccccc2)n(COCCOC(=O)c2ccccc2)c(=O)[nH]c1=O,,MT-4,EC50,,,,7.6 µM
CCN1c2ncc(CCOc3ccc(CC(C)C(=O)O)c4ccccc34)cc2C(=O)N(C)c2ccc(C)nc21,WT,C8166,EC50,p24,,,<0.1 µM
Cc1ncn(Nc2ccccc2)c1-c1ccccc1,NL4-3,MT-4,EC50,cytopathic effect / MTT,,,20.98 µM
O=C(O)c1cc(-n2cccc2)ccc1Cl,SF162 R5 CLADE B,PBMC/5.25M7,EC90,luciferase / cell fusion,,,150 µM
CCOC(=O)c1cc(-c2cccc(OC)c2)n(-c2cccc(N=[N+]=[N-])c2)c1C,,MT-4,EC50,cytopathic effect / MTT,,,>6.4 µM
COC(=O)C(C)OP(=O)(OC)OC[C@H]1O[C@@H](n2cc(C)c(=O)[nH]c2=O)C[C@@H]1N=[N+]=[N-],RF,C8166,EC50,p24,,,0.6 µM
C=C(C)[C@@H]1CC[C@]2(C(=O)N[C@H](CC(C)C)C(=O)O)CC[C@]3(C)[C@H](CC[C@@H]4[C@@]5(C)CC[C@H](OC(=O)CC(C)(C)C(=O)O)C(C)(C)[C@@H]5CC[C@]43C)[C@@H]12,NL4-3,MT-4,EC50,p24,,,0.02 µM
Cc1ccc(-c2c([C@H](OC(C)(C)C)C(=O)O)c(C(F)(F)F)c3c(c2C(F)(F)F)CN(C(=O)c2cccc(F)c2)C3)cc1,,MT-4,EC50,luciferase,,,0.005 µM
C=C1[C@H](n2cnc3c(=O)[nH]c(N)cc32)O[C@H](CO)[C@H]1O,,MT-2,EC50,cytopathic effect / MTT,,,>100 µM
CCOC(=O)c1cc(-c2cccc(OC)c2)n(-c2cccc(Br)c2)c1C,,MT-4,EC50,cytopathic effect / MTT,,,>10 µM
Cc1cc(C#N)cc(C)c1Oc1nc(Nc2ccc(NS(=O)(=O)c3ccc([N+](=O)[O-])cc3)cc2)nc2ccsc12,IIIB,MT-4,EC50,MTT,,,1.35 µM
CCOc1ccccc1N(CC(=O)Nc1ccc(S(=O)(=O)Nc2cccc(C(F)(F)F)c2)cc1)S(C)(=O)=O,IIIB,MT-2,EC50,p24,,,<10 µM
CCOC(=O)c1cc(-c2cccc(OC)c2)n(-c2cccc(Cl)c2)c1C,,MT-4,EC50,cytopathic effect / MTT,,,>100 µM
COc1ccc2c(c1)[nH]c1cc(OC)c(C=O)cc12,,1A2,EC50,syncytia,,,29.1 µM
COc1cccc(Nn2cnc(C)c2-c2ccccc2)c1,IIIB,MT-4,EC50,cytopathic effect / MTT,,,>34.44 µM
CCCCCCCCCCCCCCCCOP(=O)(OCCO[C@@H]1O[C@H](CO)[C@@H](O)[C@H](O)[C@@H]1O)OC[C@H]1O[C@@H](n2cc(C)c(=O)[nH]c2=O)C[C@@H]1N=[N+]=[N-],LAV-Bru,U-937,EC50,RT activity,,14 d,>1 µM
NC(N)=NCCC[C@H](N)C(=O)NC[C@@H]1OC(O[C@H]2[C@@H](O)[C@H](O[C@@H]3[C@@H](O)[C@H](NC(=O)[C@@H](N)CCCN=C(N)N)C[C@H](NC(=O)[C@@H](N)CCCN=C(N)N)[C@H]3O[C@H]3O[C@H](CNC(=O)[C@@H](N)CCCN=C(N)N)[C@@H](O)[C@H](O)[C@H]3NC(=O)[C@@H](N)CCCN=C(N)N)O[C@@H]2CO)[C@H](NC(=O)[C@@H](N)CCCN=C(N)N)[C@@H](O)[C@@H]1O,B (AZT-resistant),MT-2,EC50,p24 / RT activity,,,5.3 µM
C=C(C)[C@@H]1CC[C@]2(C(=O)N[C@@H](CC(C)C)C(=O)O)CC[C@]3(C)[C@H](CC[C@@H]4[C@@]5(C)CC[C@H](OC(=O)C(C)(C)CC(=O)O)C(C)(C)[C@@H]5CC[C@]43C)[C@@H]12,NL4-3,MT-4,EC50,p24,,,0.008 µM
C#C[C@]1(COCOC(=O)C(C)C)O[C@@H](n2cnc3c(N)nc(F)nc32)C[C@@H]1O,NL4-3,U373-CD4-CXCR4,EC50,luminescence,gp160 M184V,,0.498 µM
CCN1c2ncc(CCOc3ccc(NC(=O)CCC(=O)O)c4ccccc34)cc2C(=O)N(C)c2cccnc21,WT,C8166,EC50,p24,,,<0.1 µM
CC(=O)c1cc(-c2ccccc2)n(-c2cccc(N=[N+]=[N-])c2)c1C,,MT-4,EC50,cytopathic effect / MTT,,,>6.3 µM
Cc1[nH]c2ccccc2c1CC(=O)N[C@@H](Cc1ccccc1)C(=O)N(C)c1ccccn1,NL4-3,,EC50,cytopathic effect,T107N,,24 µM
COc1ccc2c(c1)c1cc(C(C)=O)c(C)n1c1cccc(N)c21,,MT-4,EC50,cytopathic effect / MTT,,,>40 µM
Cc1cc(C)cc(S(=O)(=O)c2c(C(N)=O)[nH]c3c(Cl)cc(Cl)cc23)c1,IIIB,C8166,EC50,p24,RT-K103N Y181C,,>100 µM
C=C1[C@H](n2cnc(N)nc2=O)O[C@H](CO)[C@H]1O,,MT-2,EC50,cytopathic effect / MTT,,,>100 µM
CC(=O)O[C@H]1[C@@H]2O[C@@]3(C(C)(C)O)CC[C@](C)(O3)C2[C@@]2(CO)CC[C@@]34C[C@@]35CC[C@H](Oc3cc(C)cc(C)c3)C(C)(C)C5CCC4[C@]12C,NL4-3,MT-4,EC50,luciferase,,,1.047 µM
Nc1ccn([C@H]2CC[C@@H](CO)O2)c(=O)n1,,CEM + CEM-SS,EC50,,,,0.023 µM
Cc1cccc(Nn2c(-c3ccccc3)c(C(C)C)[nH]c2=S)c1,NL4-3,MT-4,EC50,cytopathic effect / MTT,,,≥42.63 µM
CCn1c(Sc2ccccc2)c(C)c(=O)[nH]c1=O,,MT-4,EC50,,,,4.3 µM
C=C(C)[C@@H]1CC[C@]2(C(=O)NCC(=O)N[C@@H](CC(C)C)C(=O)O)CC[C@]3(C)[C@H](CC[C@@H]4[C@@]5(C)CC[C@H](OC(=O)CC(C)(C)C(=O)O)C(C)(C)[C@@H]5CC[C@]43C)[C@@H]12,NL4-3,MT-4,EC50,p24,,,0.016 µM
COc1ccc2c3ccc(N)cc3n3c(C)c(C(C)=O)cc3c2c1,,MT-4,EC50,cytopathic effect / MTT,,,>43 µM

ECn: concentration that inhibits the pathogen or its effect by n%. Rows are shuffled and stem from different studies.